Measured values from several laboratories, pooled; numbers as filed in NIAID ChemDB.

Common to all: tests in culture; species: Rhinovirus; read by: cytopathic effect; endpoint: EC50

ECn: concentration that inhibits the pathogen or its effect by n%. Conditions beyond the fields shown may differ between rows.

{"smiles": "Cc1ccc(C(=O)CCCCOc2ccc(C3=NC(C)CO3)cc2)s1", "cells": "HeLa", "strain": "TYPE 14", "result": "0.56 µM"}
{"smiles": "CCOc1cc(CCCOc2c(C)cc(-c3noc(C)n3)cc2C)on1", "cells": "HeLa", "strain": "Serotype 15", "result": "0.312 µg/mL"}
{"smiles": "CCOC(=O)c1ccc(OCCC2CCN(c3ccc(C)nn3)CC2)cc1", "cells": "HeLa", "strain": "Serotype 59", "result": "<0.1 µg/mL"}
{"smiles": "CCOc1cc(OC)ccc1-c1cc(N(CC)CC)no1", "cells": "HeLa", "strain": "Serotype 72 (group A)", "result": ">90 µM"}
{"smiles": "O=C(CCCCOc1ccc(C2=NCCO2)cc1)c1ccccc1", "cells": "HeLa", "strain": "Serotype 2", "result": "34 µM"}
{"smiles": "CSc1nsc(-c2ccc(OCCCOc3ccc(C#N)cc3)cc2)c1C#N", "cells": "HELA-OHIO", "strain": "Serotype 45 (group A)", "result": ">2 µM"}
{"smiles": "COc1nc2ccc(OCCC3CCN(c4ccc(C)nn4)CC3)cc2o1", "cells": "MRC-5", "strain": "Serotype 2", "result": "0.159 µg/mL"}
{"smiles": "N#Cc1ccc(OCCCCC(=O)c2ccccc2)cc1", "cells": "HeLa", "strain": "Serotype 2", "result": ">267 µM"}
{"smiles": "Cc1ccc(C(=O)CCCCCCOc2ccc(C3=NCCO3)cc2Cl)s1", "cells": "HeLa", "strain": "TYPE 14", "result": "1.33 µM"}
{"smiles": "Cc1ccc(C(=O)CCCCOc2ccc(C3=NCCO3)cc2)s1", "cells": "HeLa", "strain": "Serotype 14", "result": "0.14 µM"}
{"smiles": "C#CCOc1cc(OC)ccc1-c1cc(N(CC)CC)no1", "cells": "HeLa", "strain": "Serotype 72 (group A)", "result": ">40 µM"}
{"smiles": "C=CCc1nc(C)n2c(=O)[nH]c(=S)[nH]c12", "cells": "WI-38", "strain": "TYPE 9", "result": ">100 µg/mL"}
{"smiles": "CS(=O)(=O)c1ccc(NCc2ccc(Cl)c(Cl)c2)nc1", "cells": "HeLa", "strain": "TYPE 8", "result": ">10 µg/mL"}
{"smiles": "CCOC(=O)c1ccc(OCCCCC(=O)c2ccc(C)c(C)c2)cc1", "cells": "HeLa", "strain": "Serotype 2", "result": ">282 µM"}
{"smiles": "Cc1ccc(C(=O)CCCCOc2ccc(C3=NC(C)(C)CO3)cc2)s1", "cells": "HeLa", "strain": "TYPE 14", "result": "0.81 µM"}
{"smiles": "CCc1ccc(CCCOc2c(C)cc(-c3nnn(C)n3)cc2C)o1", "cells": "HeLa", "strain": "serotypes 2 14 1A 1B 6 21 22 15 25 30 50 67 89 86 41", "result": "0.453 µg/mL"}
{"smiles": "Cc1ccc(C(=O)CCCCCCOc2ccc(C3=N[C@H](C)CO3)cc2)s1", "cells": "HeLa", "strain": "TYPE 2", "result": ">16.1 µM"}
{"smiles": "N#Cc1ccc(Oc2ccc(F)cc2)nc1", "cells": "HeLa", "strain": "TYPE 2", "result": "34 µM"}
{"smiles": "CCN(CC)c1cc(-c2ccc(OC)cc2OC)on1", "cells": "HeLa", "strain": "Serotype 89 (group B)", "result": "17.2 µM"}
{"smiles": "CS(=O)(=O)c1ccc(Oc2ccc(Cl)c(Cl)c2)nc1", "strain": "TYPE 32", "result": "4.1 µM"}
{"smiles": "Cc1c(-c2ccccc2)n(-c2cccc(F)c2)c2ccc(C(C)C)cc2c1=O", "cells": "HELA-OHIO", "strain": "1A/E28", "result": "1 µg/mL"}
{"smiles": "CSc1nsc(-c2ccc(OCCOc3ccc(C#N)cc3)cc2)c1C#N", "cells": "HELA-OHIO", "strain": "Serotype 59 (group B)", "result": ">2 µM"}
{"smiles": "Cc1cc(CCCCCCCOc2ccc(C3=NCCO3)cc2)on1", "cells": "HeLa", "strain": "TYPE 14", "result": "1.76 µM"}
{"smiles": "Cc1cc(OCCCc2ccc(=S)[nH]n2)cc(C)c1-c1noc(C(F)F)n1", "cells": "HeLa", "strain": "serotypes 3 4 5 9 16 18 38 66 75 67", "result": "0.05 µg/mL"}
{"smiles": "COc1ccc(-c2cc(N3CCCC3)no2)c(O)c1", "cells": "HeLa", "strain": "Serotype 45 (group A)", "result": ">384 µM"}
{"smiles": "CSc1nsc(-c2ccc(OS(=O)(=O)c3ccc(C)cc3)cc2)c1C#N", "cells": "HELA-OHIO", "strain": "Serotype 63 (group B)", "result": ">25 µM"}
{"smiles": "CC(=O)Nc1ccc(Cc2ccc(S(C)(=O)=O)cn2)cc1", "cells": "HeLa", "strain": "TYPE 1A", "result": ">10 µg/mL"}
{"smiles": "CSc1nsc(-c2ccc(OCCCCOc3ccc([N+](=O)[O-])cc3)cc2)c1C#N", "cells": "HELA-OHIO", "strain": "Serotype 9 (group B)", "result": ">0.5 µM"}
{"smiles": "CCOc1nc2ccc(OCCCCCc3cc(C)no3)cc2o1", "cells": "MRC-5", "strain": "Serotype 2", "result": "0.209 µg/mL"}
{"smiles": "Cc1ccc(CCCOc2c(C)cc(-c3noc(C)n3)cc2C)nn1", "cells": "HeLa", "strain": "serotypes 2 14 1A 1B 6 21 22 15 25 30 50 67 89 86 41", "result": "0.241 µg/mL"}
{"smiles": "CCOc1noc2cc(OCCC3CCN(c4nnc(C)s4)CC3)ccc12", "cells": "MRC-5", "strain": "Serotype 14", "result": "0.005 µg/mL"}
{"smiles": "CCN(CC)c1cc(-c2ccc(OC)cc2O)on1", "cells": "HeLa", "strain": "Serotype 14", "result": ">381 µM"}
{"smiles": "CSc1nsc(-c2ccc(OCCCCOc3ccccc3)cc2)c1C#N", "cells": "HELA-OHIO", "strain": "Serotype 15 (group B)", "result": ">20 µM"}
{"smiles": "Cc1cc(OCCCc2ccc(C(C)F)nn2)ccc1-c1noc(C(F)F)n1", "cells": "HeLa", "strain": "serotypes 3 4 5 9 16 18 38 66 75 67", "result": "0.05 µg/mL"}
{"smiles": "O=C(CCCCOc1c(Cl)cc(C2=NCCO2)cc1Cl)c1ccc(Cl)cc1", "cells": "HeLa", "strain": "Serotype 14", "result": ">35 µM"}
{"smiles": "CSc1nsc(-c2ccc(OCc3ccccc3)cc2)c1C#N", "cells": "HELA-OHIO", "strain": "Serotype 70 (group A)", "result": "25 µM"}
{"smiles": "CCn1c2c(c(=O)c3cc(C(C)C)ccc31)Cc1ccccc1-2", "cells": "HELA-OHIO", "strain": "TYPE 2/ HGP", "result": "0.54 µg/mL"}
{"smiles": "CS(=O)(=O)c1ccc(Oc2ccc(C(=O)c3ccccc3)cc2)nc1", "cells": "HeLa", "strain": "TYPE 2", "result": "5 µg/mL"}
{"smiles": "CCOC(=O)c1cc(Cl)c(OCCCCC(=O)c2ccc(OC)cc2)c(Cl)c1", "cells": "HeLa", "strain": "Serotype 14", "result": "5.3 µM"}
{"smiles": "COc1ccc(-c2snc(SC)c2C#N)cc1", "cells": "HELA-OHIO", "strain": "Serotype 2 (group B)", "result": ">12 µM"}
{"smiles": "Cc1c(-c2ccccc2)n(-c2ccc(F)cc2)c2ccc(C(C)C)cc2c1=O", "cells": "HELA-OHIO", "strain": "29/5582", "result": "0.11 µg/mL"}
{"smiles": "Cc1ccc(C(=O)CCCCOc2ccc(C3=NCCO3)cc2)s1", "cells": "HeLa", "strain": "TYPE 2", "result": "1.31 µM"}
{"smiles": "COCc1cc(CCCOc2c(Cl)cc(-c3noc(C)n3)cc2Cl)on1", "cells": "HeLa", "strain": "Serotype 1A", "result": "0.034 µg/mL"}
{"smiles": "N#Cc1cc([N+](=O)[O-])ccc1Oc1ccc(Cl)c(Cl)c1", "cells": "HeLa", "strain": "HANK", "result": "1.5 µg/mL"}
{"smiles": "CCOC(=O)c1ccc(OCCCCC(=O)c2ccc(C)cc2)cc1", "cells": "HeLa", "strain": "Serotype 2", "result": "5 µM"}
{"smiles": "CSc1nsc(-c2ccc(O)cc2)c1C#N", "cells": "HELA-OHIO", "strain": "Serotype 14 (group A)", "result": ">10 µM"}
{"smiles": "Cc1ccc(C(=O)CCCCOc2ccc(C3=NCC(C)O3)cc2)s1", "cells": "HeLa", "strain": "TYPE 14", "result": "1.9 µM"}
{"smiles": "CCS(=O)(=O)c1ccc(Cc2ccc(Cl)c(Cl)c2)nc1", "cells": "HeLa", "strain": "TYPE 1A", "result": "0.6 µg/mL"}
{"smiles": "CCCc1noc2cc(OCCC3CCN(c4ccc(C)nn4)CC3)ccc12", "cells": "MRC-5", "strain": "Serotype 14", "result": "0.019 µg/mL"}
{"smiles": "COc1ccc(C(=O)CCCCOc2ccc(C#N)cc2)cc1", "cells": "HeLa", "strain": "Serotype 14", "result": ">253 µM"}
{"smiles": "Cc1ccc(N2CCC(CCOc3ccc4oc(C)nc4c3)CC2)nn1", "cells": "MRC-5", "strain": "Serotype 14", "result": ">0.5 µg/mL"}
{"smiles": "N#Cc1ccc(Oc2ccc(Cl)c(Cl)c2)c(C#N)c1", "cells": "HeLa", "strain": "TYPE 1A", "result": "173 µM"}
{"smiles": "CCOC(=O)c1ccc(OCCC2CCN(c3ccc(C)nn3)CC2)cc1", "cells": "HELA-OHIO", "strain": "Serotype 63 (group B)", "result": "0.01 µM"}
{"smiles": "Cc1nc(Cc2ccccc2)c2[nH]c(=S)[nH]c(=O)n12", "cells": "WI-38", "strain": "TYPE 9", "result": ">100 µg/mL"}
{"smiles": "COc1ccc(CNc2ccc(S(C)(=O)=O)cn2)cc1OC", "cells": "HeLa", "strain": "TYPE 1A", "result": ">10 µg/mL"}
{"smiles": "Cc1nc(CC(O)CO)c2nc[nH]c(=O)n12", "cells": "WI-38", "strain": "TYPE 1A", "result": "≥300 µg/mL"}
{"smiles": "CS(=O)(=O)c1ccc(Cc2ccc(Cl)c(Cl)c2)nc1", "cells": "HeLa", "strain": "TYPE 33", "result": "1.3 µg/mL"}
{"smiles": "CSc1nc2ccc(OCCC3CCN(c4ccc(C)nn4)CC3)cc2o1", "cells": "MRC-5", "strain": "Serotype 14", "result": "0.047 µg/mL"}
{"smiles": "COC(=O)c1cc(CCCOc2c(C)cc(-c3noc(C)n3)cc2C)on1", "cells": "HeLa", "strain": "Serotype 67", "result": "0.047 µg/mL"}
{"smiles": "O=C(CCCCOc1ccc(C2=NCCO2)cc1)c1ccc(Cl)cc1", "cells": "HeLa", "strain": "Serotype 2", "result": ">280 µM"}
{"smiles": "CS(=O)(=O)c1ccc(Cc2ccccc2)nc1", "cells": "HeLa", "strain": "TYPE 64", "result": ">10 µg/mL"}
{"smiles": "CC(=O)Nc1nc2c(CC(O)CO)nc(C)n2c(=O)[nH]1", "cells": "WI-38", "strain": "TYPE 9", "result": ">400 µg/mL"}

Again, the opening 6 rows:

smiles | cells | strain | result
Cc1ccc(C(=O)CCCCOc2ccc(C3=NC(C)CO3)cc2)s1 | HeLa | TYPE 14 | 0.56 µM
CCOc1cc(CCCOc2c(C)cc(-c3noc(C)n3)cc2C)on1 | HeLa | Serotype 15 | 0.312 µg/mL
CCOC(=O)c1ccc(OCCC2CCN(c3ccc(C)nn3)CC2)cc1 | HeLa | Serotype 59 | <0.1 µg/mL
CCOc1cc(OC)ccc1-c1cc(N(CC)CC)no1 | HeLa | Serotype 72 (group A) | >90 µM
O=C(CCCCOc1ccc(C2=NCCO2)cc1)c1ccccc1 | HeLa | Serotype 2 | 34 µM
CSc1nsc(-c2ccc(OCCCOc3ccc(C#N)cc3)cc2)c1C#N | HELA-OHIO | Serotype 45 (group A) | >2 µM